Source: article PMC9674292

Target: 6xHis-tagged SNAP-ΔNS-VopF (V. cholerae)

Question: How did the elongation rate of filaments at surface-anchored 6xHis-SNAP-ΔNS-VopF from 10 μM unlabeled actin monomers with 15 μM PFN (mf-TIRFM) turn out when “Skeletal actin (rabbit skeletal muscle) (from UniProt P68135 1-377) (natural protein)” was run?
Answer: 25.3 subunits/s
